Pooled drug test results. Numbers come from NIAID ChemDB, via PubChem.

All rows: cytotoxicity tests; cells: H9; measure: CC50

CCn: concentration that lowers growth or viability of the cells by n%. Blank or dashed fields: not listed here. Conditions beyond the fields shown may differ between rows.

structure | read by | value
CC(C)[C@H](Cc1ccccc1)NC(=O)C[C@@H]1O[C@@H]1[C@H](Cc1ccccc1)NC(=O)[C@@H](NC(=O)OCc1cccnc1)C(C)(C)S(C)(=O)=O |  | >100 µM
COc1ccc2c(c1OC)C(CC(C)=O)N(C)c1c-2ccc2cc3c(cc12)OCO3 |  | 25.8 µM
C/C=C(/C)C(=O)O[C@@H]1c2c(ccc3ccc(=O)oc23)OC(C)(C)[C@@H]1OC(C)=O |  | 20.7 µM
CC1(C)Oc2ccc3ccc(=O)oc3c2[C@@H](OC(=O)C23CCC(C)(C(=O)O2)C3(C)C)[C@H]1OC(=O)C12CCC(C)(C(=O)O1)C2(C)C |  | >32 µM
CC(C)CC(=O)OC1C(OC(=O)c2cccc(Cl)c2)c2c(ccc3ccc(=O)oc23)OC1(C)C |  | 13.02 µM
CN(c1cccc2cccnc12)S(=O)(=O)c1ccc(F)cc1F | ATP | >50 µM
Fc1ccc(OCCC(Cn2ccnc2)c2ccc(Cl)cc2Cl)cc1 | WST / absorbance | 60.1 µM
CC(=O)N[C@H](C(=O)N[C@@H](Cc1ccccc1)[C@H]1O[C@H]1CC(=O)NC(C(C)C)C(C)C)C(C)(C)S(C)(=O)=O |  | >100 µM
CCOC(=O)c1cc(C(=O)c2ccccc2)n2ccc(C(=O)N[C@H](C)c3ccccc3)cc12 | MTT | 216 µM
O=S(=O)(Nc1cccc2cccnc12)c1ccc(F)cc1F | ATP | 5.1 µM
CC1(C)C=Cc2c(ccc3ccc(=O)oc23)O1 |  | 17.5 µM
C[C@H](CCC(=O)NCC(=O)N[C@@H](Cc1cc(I)c(O)cc1I)C(=O)O)[C@H]1CC[C@H]2[C@@H]3[C@H](O)CC4C[C@H](O)CC[C@]4(C)[C@H]3C[C@H](O)[C@]12C |  | >500 µg/mL
CCOC(=O)c1cc(C(=O)c2ccccc2)n2cccc(C(=O)NCc3ccccn3)c12 | MTT | 154.2 µM
O=S(=O)(Nc1cccc2cccnc12)c1ccc(Cl)cc1Cl | ATP | 0.47 µM
CC1(C)Oc2ccc3ccc(=O)oc3c2[C@@H](OC(=O)c2cccc(Cl)c2)[C@@H]1OC1CCCCO1 |  | 83 µM
O=c1nccc(NS(=O)(=O)c2ccc(F)cc2F)[nH]1 | ATP | >20 µM
CC(CCC(=O)N[C@@H](Cc1ccc(O)cc1)C(=O)O)C1CCC2C3CCC4C[C@H](O)CCC4(C)C3C[C@H](O)C12C |  | >500 µg/mL
CC1(C)Oc2ccc3ccc(=O)oc3c2[C@H](OC(=O)C23CCC(C)(C(=O)O2)C3(C)C)[C@H]1OC(=O)C12CCC(C)(C(=O)O1)C2(C)C |  | 160 µM
C=C(C)[C@@H]1CC[C@]2(C=O)CC[C@]3(C)[C@H](CC[C@@H]4[C@@]5(C)CCC(=O)C(C)(C)[C@@H]5CC[C@]43C)[C@@H]12 |  | 49 µM
COc1ccc(S(=O)(=O)Nc2cccc3cccnc23)cc1 | ATP | >20 µM
CC(C)[C@H](Cc1ccccc1)NC(=O)C[C@@H]1O[C@@H]1[C@H](Cc1ccccc1)NC(=O)[C@@H](NC(=O)c1ccc2ccccc2n1)C(C)(C)S(C)(=O)=O |  | >100 µM
CC(=O)O[C@@H]1[C@H](OC(=O)CC(C)C)c2c(ccc3ccc(=O)oc23)OC1(C)C |  | >52 µM
CC1(C)Oc2ccc3ccc(=O)oc3c2C(O)C1OCc1ccccc1 |  | 116.1 µM
CCOC(=O)c1cc(C(=O)c2ccccc2)n2ccc(C(=O)NCc3ccco3)cc12 | MTT | 98.2 µM
CC(C)[C@@H](NC(=O)C[C@@H]1O[C@@H]1[C@H](Cc1ccccc1)NC(=O)[C@@H](NC(=O)OCc1ccncc1)C(C)(C)S(C)(=O)=O)c1ccccc1 |  | >100 µM
CC(CC(=O)O)CC(=O)OC[C@]12CC[C@@H](C(C)C)[C@@H]1[C@H]1CC[C@@H]3[C@@]4(C)CC[C@H](OC(=O)CC(C)CC(=O)O)C(C)(C)[C@@H]4CC[C@@]3(C)[C@]1(C)CC2 |  | 19.2 µM
CC(C)(C)c1ccc(C(=O)OC2c3c(ccc4ccc(=O)oc34)OC(C)(C)C2OC(=O)c2ccc(C(C)(C)C)cc2)cc1 |  | 3.08 µM
CC(C)[C@H](Cc1ccccc1)NC(=O)C[C@@H]1O[C@@H]1[C@H](Cc1ccccc1)NC(=O)[C@@H](NC(=O)OCc1ccccn1)C(C)(C)S(C)(=O)=O |  | >100 µM
CC1=C(/C=C/C(C)=C\C=C\C(C)=C\C(=O)O)C(C)(C)CCC1 | MTT | >1 µM
C=C(C)[C@@H]1CC[C@]2(COC(=O)CCCC(=O)O)CC[C@]3(C)[C@H](CC[C@@H]4[C@@]5(C)CC[C@H](OC(=O)CCCC(=O)O)C(C)(C)[C@@H]5CC[C@]43C)[C@@H]12 |  | 25.8 µM
CC(C)C(NC(=O)C[C@@H]1O[C@@H]1[C@H](Cc1ccccc1)NC(=O)[C@@H](NC(=O)OCc1cccnc1)C(C)(C)S(C)(=O)=O)C(C)C |  | >100 µM
CCOC(=O)c1cc(C(=O)c2ccc(F)cc2)n2ccc(C(=O)NCc3ccccn3)cc12 | MTT | 81.6 µM
CC(C)CCC[C@@H](C)[C@H]1CCC2C3CCC4C[C@@H](O[C@H]5O[C@H](COS(=O)(=O)[O-])[C@@H](OS(=O)(=O)[O-])[C@H](OS(=O)(=O)[O-])[C@@H]5O[C@H]5O[C@H](COS(=O)(=O)[O-])[C@@H](OS(=O)(=O)[O-])[C@H](O[C@H]6O[C@H](COS(=O)(=O)[O-])[C@@H](OS(=O)(=O)[O-])[C@H](O[C@H]7O[C@H](COS(=O)(=O)[O-])[C@@H](OS(=O)(=O)[O-])[C@H](OS(=O)(=O)[O-])[C@@H]7OS(=O)(=O)[O-])C6OS(=O)(=O)[O-])[C@@H]5OS(=O)(=O)[O-])CC[C@]4(C)C3CC[C@@]21C |  | >800 µg/mL
C=C(C)[C@@H]1CC[C@]2(COC(=O)CC3(CC(=O)O)CCCC3)CC[C@]3(C)[C@H](CC[C@@H]4[C@@]5(C)CC[C@H](O)C(C)(C)[C@@H]5CC[C@]43C)[C@@H]12 |  | 13.3 µM
CCOC(=O)c1cc(C(=O)c2cccc(N)c2)n2ccc(C(=O)NCc3ccccn3)cc12 | MTT | 133.5 µM

4 of the rows above, restated:

structure | read by | value
CCOC(=O)c1cc(C(=O)c2ccc(F)cc2)n2ccc(C(=O)NCc3ccccn3)cc12 | MTT | 81.6 µM
CCOC(=O)c1cc(C(=O)c2ccccc2)n2cccc(C(=O)NCc3ccccn3)c12 | MTT | 154.2 µM
CC(=O)O[C@@H]1[C@H](OC(=O)CC(C)C)c2c(ccc3ccc(=O)oc23)OC1(C)C |  | >52 µM
CC1(C)C=Cc2c(ccc3ccc(=O)oc23)O1 |  | 17.5 µM